A mixed list of measured activities; the numbers were collected in NIAID ChemDB.

Shared fields: tests in culture; organism: Pneumocystis carinii; endpoint: EC50

Blank or dashed fields: not listed here. ECn is the concentration giving n% inhibition of infection, replication or growth. Lines come from different laboratories, so protocols vary.

structure	cells	setting	value
CN=C(N)c1ccc(N2CCN(c3ccc(C(N)=NC)cc3)CC2)cc1	A549		2.5 µg/mL
Nc1ccn([C@@H]2CS[C@H](CO)O2)c(=O)n1			>100 µg/mL
O=c1[nH]cnc2c([C@@H]3O[C@H](CO)[C@@H](O)[C@H]3O)c[nH]c12			>1 µg/mL
CN(Cc1cnc2nc(N)nc(N)c2n1)c1ccc(C(=O)N[C@@H](CCC(=O)O)C(=O)O)c2ccccc12			0.1 µM
Cc1cn([C@H]2C[C@H](N=[N+]=[N-])[C@@H](CO)O2)c(=O)[nH]c1=O			>100 µg/mL
C[C@@H]1CC[C@H]2[C@@H](C)C(=O)O[C@@H]3OC4(C)CC[C@@H]1[C@]32OO4			0.5 µM
Nc1nc(N)c2nc(CN(CCO)c3ccc(C(=O)NC(CCC(=O)O)C(=O)O)cc3)cnc2n1			67 µM
c1ccc(N2CCN(c3ccccc3)C2c2ccc(N3CCN(c4ccc(C5N(c6ccccc6)CCN5c5ccccc5)cc4)CC3)cc2)cc1	A549		>100 µg/mL
CC1(C)N=C(N)N=C(N)N1c1cccc(OCCCOc2ccc(N)cc2)c1			14.1 µM
CCCN=C(N)c1ccc(N2CCN(c3ccc(C(N)=NCCC)cc3)CC2)cc1	A549		1.6 µg/mL
Nc1ccc(S(=O)(=O)Nc2cc(I)cc(I)c2)cc1		5 d	<100 µM
O=c1[nH]cnc2c1ncn2[C@H]1CC[C@@H](CO)O1			>100 µg/mL
CC(=O)c1ccc(N2CCN(c3ccc(C(C)=O)cc3)CC2)cc1	A549		>100 µg/mL
O=C(O)CNCP(=O)(O)O		7 d	>10 µM
Nc1ccc(S(=O)(=O)Nc2cc(Cl)cc(Cl)c2)cc1		5 d	<100 µM
COc1cc(NC(C)CCCN)c2ncccc2c1		10 d	<10 µg/mL
CCc1nc(N)nc(N)c1-c1ccc(Cl)c(N=NN(C)C)c1			5.5 µM
N/C(=N\O)c1ccc(C(=O)Nc2cccc(NC(=O)c3ccc(/C(N)=N/O)cc3)c2)cc1	A549		15.1 µg/mL
CN(Cc1cnc2nc(N)nc(N)c2n1)c1ccc(C(=O)N[C@@H](CCC(=O)O)C(=O)O)cc1			4.3 µM
N=C(N)c1ccc(N2CCCN(c3ccc(C(=N)N)cc3)CC2)cc1	A549		0.835 µg/mL
CN(Cc1cnc2nc(N)nc(N)c2n1)c1ccc(C(=O)N[C@H](CCC(=O)O)C(=O)O)cc1I			15.7 µM
c1cc(C2=NCCN2)ccc1CC1CCCN(c2ccc(C3=NCCN3)cc2)C1	A549		1.23 µg/mL
CC(C)(C)NC(=O)[C@@H]1CN(Cc2cccnc2)CCN1C[C@@H](O)C[C@@H](Cc1ccccc1)C(=O)N[C@H]1c2ccccc2C[C@H]1O			35.4 µg/mL
CN(Cc1cnc2nc(N)nc(N)c2n1)c1c(F)cc(C(=O)N[C@H](CCC(=O)O)C(=O)O)cc1F			1.5 µM

2 of the rows above, restated:

structure,cells,setting,value
N/C(=N\O)c1ccc(C(=O)Nc2cccc(NC(=O)c3ccc(/C(N)=N/O)cc3)c2)cc1,A549,,15.1 µg/mL
CN=C(N)c1ccc(N2CCN(c3ccc(C(N)=NC)cc3)CC2)cc1,A549,,2.5 µg/mL